# Data published in PubChem BioAssay AID602123 (The Scripps Research Institute Molecular Screening Center, 2011).
# Protein sequences, listed by entry. Tags and fused reporters are not part of them.
# UniProt P0A9M0, whole entry: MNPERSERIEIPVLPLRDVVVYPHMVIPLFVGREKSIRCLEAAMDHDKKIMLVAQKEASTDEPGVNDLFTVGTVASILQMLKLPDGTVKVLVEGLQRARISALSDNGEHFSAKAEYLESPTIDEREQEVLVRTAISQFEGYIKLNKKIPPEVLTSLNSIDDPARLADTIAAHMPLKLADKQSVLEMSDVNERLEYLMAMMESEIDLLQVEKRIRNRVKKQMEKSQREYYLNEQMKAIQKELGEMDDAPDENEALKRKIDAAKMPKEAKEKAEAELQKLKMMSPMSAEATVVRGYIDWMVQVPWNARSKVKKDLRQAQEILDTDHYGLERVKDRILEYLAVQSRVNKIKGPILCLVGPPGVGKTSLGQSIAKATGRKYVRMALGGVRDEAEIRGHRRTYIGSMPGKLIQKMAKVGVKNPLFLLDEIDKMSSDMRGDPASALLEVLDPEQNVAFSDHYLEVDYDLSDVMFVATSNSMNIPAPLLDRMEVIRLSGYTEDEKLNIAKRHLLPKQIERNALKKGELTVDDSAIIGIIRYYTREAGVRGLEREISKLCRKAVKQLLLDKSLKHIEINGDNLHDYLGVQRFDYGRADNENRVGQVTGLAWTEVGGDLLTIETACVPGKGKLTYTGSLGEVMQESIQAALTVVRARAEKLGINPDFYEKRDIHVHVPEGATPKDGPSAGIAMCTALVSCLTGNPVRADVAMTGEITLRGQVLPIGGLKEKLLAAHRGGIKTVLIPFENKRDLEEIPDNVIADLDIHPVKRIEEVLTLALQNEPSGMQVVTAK
# Only a part is listed here, and it is no random draw. Activity calls are given as the source filed them. No stated cut-off is given here; in the data, active means inhibition above about 13% (passing the limit was not always enough); inactive means the rest.
# Biological target: Lon protease (Escherichia coli (strain K12)) (UniProt P0A9M0)
# Assay: inhibitors of E. coli Lon protease, primary screen, biochemical, fluorescence polarization (AID 602123);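 further: 0% = enzyme with probe and DMSO and 100% = no enzyme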
# Settings: purified E. coli Lon protease, at 7.94 µM, hits give high values
row,SMILES,inhibition
1,O=c1[nH]c2ccccc2n1C1CCN(C(c2cccs2)c2nnnn2C2CCCCC2)CC1 (stereo unspecified),inactive: -7.42%
2,O=c1[nH]c2ccccc2n1C1CCN(C(c2ccnc3ccccc23)c2nnnn2C2CCCC2)CC1 (stereo unspecified),inactive: -7.91%
3,COc1ccc(C(=O)NCC2(N3CCOCC3)CCCCC2)cc1OC,inactive: -8.04%
4,COc1cc(C(=O)NCC2(N3CCOCC3)CCCCC2)cc(OC)c1C,inactive: -10.4%
5,CCCCn1nnnc1C(c1ccccc1)N1CCC(n2c(=O)[nH]c3ccccc32)CC1 (stereo unspecified),inactive: -3.63%
6,O=C(NCC1(N2CCOCC2)CCCCC1)c1cc(Br)ccc1Cl,inactive: -7.46%
7,O=c1[nH]c2ccccc2n1C1CCN(C(c2cccs2)c2nnnn2C2CCCC2)CC1 (stereo unspecified),inactive: -2.61%
8,O=C(OC1CN2CCC1CC2)C1c2ccccc2C=Cc2ccccc21 (stereo unspecified),inactive: -13.2%
9,CCCCn1nnnc1C(c1cccc(OC)c1OC)N1CCC(n2c(=O)[nH]c3ccccc32)CC1 (stereo unspecified),inactive: 1.24%
10,CCOC(=O)N1CCC(Nc2ccc(C)cc2)CC1,inactive: 1.42%
11,COc1cccc(C(c2nnnn2C(C)(C)C)N2CCC(n3c(=O)[nH]c4ccccc43)CC2)c1OC (stereo unspecified),inactive: -6.79%
12,N/C(=N\O)c1c(N)no[n+]1[O-],inactive: 0.32%
13,N#Cc1ccc(C(=O)NCC2(N3CCCCC3)CCCCC2)cc1,inactive: -1.39%
14,CC(C)(C)OC(=O)N1CCC(N(C(=O)c2ccccc2)c2ccc(Cl)cc2)CC1,inactive: 3.99%
15,CC(C)(C)n1nnnc1C(c1cccc2ccccc12)N1CCC(n2c(=O)[nH]c3ccccc32)CC1 (stereo unspecified),inactive: -5.44%
16,CN(C)C1(CNC(=O)c2cccc(C#N)c2)CCCCC1,inactive: -1.65%
17,Cc1cc(N(CCCl)CCCl)ccc1C=O,inactive: -9.74%
18,CCCN1CCC(Nc2cc(OC)cc(OC)c2)CC1,inactive: 12%
19,O=c1[nH]c2ccccc2n1C1CCN(C(c2ccccc2)c2nnnn2C2CCCC2)CC1 (stereo unspecified),inactive: -6.44%
20,c1ccc(CN2CCC(Nc3ccccc3)CC2)cc1,inactive: -5.62%
21,Fc1ccccc1NC1CCN(Cc2ccccc2)CC1,inactive: -10.9%

row,SMILES,inhibition
1,Cc1ccc(C(=O)NCC2(N3CCCCC3)CCCCC2)o1,inactive: -6.64%
2,Cc1ccc(NC2(C#N)CCN(Cc3ccccc3)CC2)cc1,inactive: -13%
3,CCC(c1nnnn1C1CCCCC1)N1CCC(n2c(=O)[nH]c3ccccc32)CC1 (stereo unspecified),inactive: -0.99%
4,COc1cccc(C(c2nnnn2C2CCCCC2)N2CCC(n3c(=O)[nH]c4ccccc43)CC2)c1OC (stereo unspecified),inactive: -6.51%
5,CC(=O)N(c1ccccc1)C1CCNCC1,inactive: -6.34%
6,COc1cc(OC)cc(C(=O)NCC2(N3CCCCC3)CCCCC2)c1,inactive: -8.07%
7,O=c1[nH]c2ccccc2n1C1CCN(C(c2ccnc3ccccc23)c2nnnn2C2CCCCC2)CC1 (stereo unspecified),inactive: 0.54%
8,CN(C)c1ccc(C(=O)NCC2(N3CCCCC3)CCCCC2)cc1,inactive: -10.5%
9,Cn1c(=O)[nH]cc(N(CCCl)CCCl)c1=O,inactive: 2.82%
10,O=C(NCC1(N2CCCCC2)CCCCC1)c1ccco1,inactive: -2.56%
11,CCN1CCC(Nc2cccc(F)c2)CC1,inactive: 0.18%
12,COc1ccc(C(c2nnnn2C2CCCCC2)N2CCC(n3c(=O)[nH]c4ccccc43)CC2)cc1 (stereo unspecified),inactive: -5.05%
13,CC(C)(C)n1nnnc1C(c1ccnc2ccccc12)N1CCC(n2c(=O)[nH]c3ccccc32)CC1 (stereo unspecified),inactive: -4.47%
14,Cc1ccccc1NC1(C#N)CCN(Cc2ccccc2)CC1,inactive: -8.98%
15,NN(c1ccccc1)C1CCN(CCc2ccccc2)CC1,inactive: -0.89%
16,O=C(O)C1(Nc2ccccc2)CCN(Cc2ccccc2)CC1,inactive: -6.32%
17,CC(C)(C)OC(=O)N1CCC(Nc2ccccc2)CC1,inactive: -4.38%
18,O=c1[nH]c2ccccc2n1C1CCN(C(c2cc3ccccc3o2)c2nnnn2C2CCCC2)CC1 (stereo unspecified),inactive: -6.54%
19,CCCOc1ccc(C(=O)NCC2(N(C)C)CCCCC2)cc1,inactive: -8.04%
20,CN1CCC(Nc2ccc(F)c(Cl)c2)CC1,inactive: 3.07%
21,CCOc1ncccc1C(=O)NCC1(N2CCOCC2)CCCCC1,inactive: -3.44%

row,SMILES,inhibition
1,CN1CCC(Nc2ccc(Cl)cc2)CC1,inactive: 2.34%
2,COc1cccc(C(=O)N(c2cc(C)cc(C)c2)C2CCN(C(=O)OC(C)(C)C)CC2)c1,inactive: -8.73%
3,COc1cccc(C(c2nnnn2C2CCCC2)N2CCC(n3c(=O)[nH]c4ccccc43)CC2)c1OC (stereo unspecified),inactive: -6.56%
4,COc1cc(OC)cc(C(=O)NCC2(N3CCOCC3)CCCCC2)c1,inactive: -5.17%
5,CCC(CO)(C(=O)OC1CN2CCC1CC2)c1ccccc1 (stereo unspecified),inactive: 1.68%
6,Cc1cccc(NC2(C#N)CCN(Cc3ccccc3)CC2)c1,inactive: 0.42%
7,CSc1ccccc1C(=O)NCC1(N2CCCCC2)CCCCC1,inactive: 0.73%
8,CC(C)(C)OC(=O)N1CCC(N(C(=O)c2ccccc2)c2ccc(F)cc2)CC1,inactive: 7.44%
9,COc1ccc(C(=O)NCC2(N3CCCCC3)CCCCC2)c(OC)c1OC,inactive: 0.71%
10,CCC(c1nnnn1C1CCCC1)N1CCC(n2c(=O)[nH]c3ccccc32)CC1 (stereo unspecified),inactive: -5.45%
11,COc1ccc(C(=O)NCC2(N3CCCCC3)CCCCC2)cc1,inactive: -4.54%
12,O=C(NCC1(N2CCCCC2)CCCCC1)c1cccs1,inactive: 1.37%
13,CCCCn1nnnc1C(CC)N1CCC(n2c(=O)[nH]c3ccccc32)CC1 (stereo unspecified),inactive: 1.21%
14,CCCCn1nnnc1C(c1cccs1)N1CCC(n2c(=O)[nH]c3ccccc32)CC1 (stereo unspecified),inactive: -7.57%
15,O=C(NCC1(N2CCCCC2)CCCCC1)c1ccc(=O)[nH]c1,inactive: 0.95%
16,COc1ccc(Cl)cc1C(=O)NCC1(N2CCOCC2)CCCCC1,inactive: 4.71%
17,N#CC1(Nc2ccccc2)CCN(Cc2ccccc2)CC1,inactive: 2.17%
18,O=C(NCC1(N2CCCCC2)CCCCC1)c1ccc(Cl)s1,inactive: -19.1%
19,O=c1[nH]c2ccccc2n1C1CCN(C(c2cc3ccccc3o2)c2nnnn2C2CCCCC2)CC1 (stereo unspecified),inactive: 3.72%
